# From patent publication US20240109955A1 (published 2024)
# How the values were obtained:
# Assay in all cases: cell-based or functional assay
# [1] = molecular target: SARS-CoV-2 spike (S) protein, Omicron sublineage BF.7 (SARS-CoV-2)
# [2] = molecular target: SARS-CoV-2 spike (S) protein, Omicron sublineage XBB1.5 (SARS-CoV-2)
# [3] = molecular target: SARS-CoV-2 spike (S) protein, Omicron sublineage BA.2.12.1 (SARS-CoV-2, UniProt P0DTC2 14-1273)
# [4] = molecular target: SARS-CoV-2 spike (S) protein, Omicron sublineage BA.2 (SARS-CoV-2, UniProt P0DTC2 14-1273)
Binder,"IC50, pseudovirus neutralization [1] [nM]","IC80, pseudovirus neutralization [1] [nM]","IC50, pseudovirus neutralization [2] [nM]","IC80, pseudovirus neutralization [2] [nM]","IC50, pseudovirus neutralization [3] [nM]","IC80, pseudovirus neutralization [3] [nM]","IC50, pseudovirus neutralization [4] [nM]","IC80, pseudovirus neutralization [4] [nM]"
A46 + E12 + B8 + A58VGLTG (other) VH 1: QVQLVESGGGVVQPGRSLRLSCAASGFTLSSYGMHWVRQAPGKGLEWVAVISYDGSNKYYVDSVKGRFTISRDNSKNTLYLQMNSLRAEDTAVYYCRWAYWELLPDYYYGMDVWGQGTTVTVSS VL 1: QTVVTQEPSFSVSPGGTVTLTCGLSSGSVSTAYFPSWYQQTPGQAPRTLIYGTNTRSSGVPDRFSGSILGNKAALTITGAQADDESDYYCVLYMGRGIVVFGGGTKLTVL VH 2: EVQLVESGGGLIQPGGSLRLSCAASGVIVSYNYMNWVRQAPGKGLEWVSVIYSGGSTFYADSVRGRFTISRDNSKNTLYLQMNSLRAEDTAVYYCARDLGPAGAFDIWGLGTMVTVSS VL 2: EIVLTQSPGTLSLSPGETATLSCRASQSFSSDLAWYQQKPGQAPRLLIYGASSRATGIPDRFSGSGSGTDFTLTISRLEPADFAVYYCQQYGSSPPVTFGGGTKVEIK VH 3: EVQLVESGGALIQPGGSLRLSCAASGIIVSANYMSWVRQAPGKGLEWVSVIYSGGSTFYADSVKGRFTISRDNSKNTLYLEMNSLRAEDTAVYYCARDAPILGVSDWGQGTLVTVSS VL 3: EIVMTQSPAILSVSPGERATLSCRASQSVAINLAWYQQKPGQAPRLLIYAASSRATGIPGRFSGSGSETNFTLTISSLQSGDFAVYYCQQYITWPPSYTFGQGTKLEIK VH 4: QMQLVQSGPEVKKPGTSVKVSCKASGFTFTSSAVQWVRQRQRLEWIGWIVVGSGNTNYAQKFQERVTITRDMSTSTAYMELSSLRSEDTAVYYCAAPNCSNVVCYDGFDIWGQGTMVTVSS VL 4: EIVLTQSPGTLSLSPGERATLSCRASQSVSSSYLAWYQQKPGQAPRLLIYSASSRATGIPDRFSGSGSGTDFTLTISRLEPEDFAVYFCQQYVGLTGWTFGQGTKVEIK,17.4,20,15.3,30.6,–,–,–,–
A46 + E12 + E8 + A58VGLTG (other) VH 1: QVQLVESGGGVVQPGRSLRLSCAASGFTLSSYGMHWVRQAPGKGLEWVAVISYDGSNKYYVDSVKGRFTISRDNSKNTLYLQMNSLRAEDTAVYYCRWAYWELLPDYYYGMDVWGQGTTVTVSS VL 1: QTVVTQEPSFSVSPGGTVTLTCGLSSGSVSTAYFPSWYQQTPGQAPRTLIYGTNTRSSGVPDRFSGSILGNKAALTITGAQADDESDYYCVLYMGRGIVVFGGGTKLTVL VH 2: EVQLVESGGGLIQPGGSLRLSCAASGVIVSYNYMNWVRQAPGKGLEWVSVIYSGGSTFYADSVRGRFTISRDNSKNTLYLQMNSLRAEDTAVYYCARDLGPAGAFDIWGLGTMVTVSS VL 2: EIVLTQSPGTLSLSPGETATLSCRASQSFSSDLAWYQQKPGQAPRLLIYGASSRATGIPDRFSGSGSGTDFTLTISRLEPADFAVYYCQQYGSSPPVTFGGGTKVEIK VH 3: QVTLRESGPALVKPTQTLTLTCTFSGFSLSTRGVCVSWIRQPPGKALEWLAFIDWDDDKYYNTSLKTRLTISKDTSKNQVVLTMTNVHPVDTATYYCARISSHHGSSWCTTFDYWGQGALVTVSA VL 3: DTVMTQSPLSLPVTPGEPASISCRSSQSLLNSNGYNYLDWYVQKPGQSPQLLIYLGSNRASGVPDRFSGSGSGTDFTLKISRVEAEDVGVYYCMQPLQTPLFTFGPGTKVEIK VH 4: QMQLVQSGPEVKKPGTSVKVSCKASGFTFTSSAVQWVRQRQRLEWIGWIVVGSGNTNYAQKFQERVTITRDMSTSTAYMELSSLRSEDTAVYYCAAPNCSNVVCYDGFDIWGQGTMVTVSS VL 4: EIVLTQSPGTLSLSPGERATLSCRASQSVSSSYLAWYQQKPGQAPRLLIYSASSRATGIPDRFSGSGSGTDFTLTISRLEPEDFAVYFCQQYVGLTGWTFGQGTKVEIK,3.57,15.5,20.9,49.7,–,–,–,–
MX835 (other) chain 1: QTVVTQEPSFSVSPGGTVTLTCGLSSGSVSTAYFPSWYQQTPGQAPRTLIYGTNTRSSGVPDRFSGSILGNKAALTITGAQADDESDYYCVLYMGRGIVVFGGGTKLTVLGGSSGEIVLTQSPGTLSLSPGERATLSCRASQSVSSSYLAWYQQKPGQAPRLLIYSASSRATGIPDRFSGSGSGTDFTLTISRLEPEDFAVYFCQQYGGLTGWTFGQGTKVEIKGGGGSGGSGSGGGGSASGSGQMQLVQSGPEVKKPGTSVKVSCKASGFTFTSSAVQWVRQRQRLEWIGWIVVGSGNTNYAQKFQERVTITRDMSTSTAYMELSSLRSEDTAVYYCAAPNCSNVVCYDGFDIWGQGTMVTVSSGGSSGQVQLVESGGGVVQPGRSLRLSCAASGFTLSSYGMHWVRQAPGKGLEWVAVISYDGSNKYYVDSVKGRFTISRDNSKNTLYLQMNSLRAEDTAVYYCRWAYWELLPDYYYGMDVWGQGTTVTVSSASGGSGDKTHTCPPCPAPELLGGPSVFLFPPKPKDTLMISRTPEVTCVVVDVSHEDPEVKFNWYVDGVEVHNAKTKPREEQYNSYVVSVLTVLHQDWLNGKEYKCKVSNKALPAPIEKTISKAKGQPREPQVYTLPPCRDELTKNQVSLWCLVKGFYPSDIAVEWESNGQPENNYKTTPPVLDSDGSFFKKLTVDKSRWQQGNVFSCSVLHEALHSHYTQKSLSLSPG chain 2: EIVLTQSPGTLSLSPGERATLSCRASQSVSSSYLAWYQQKPGQAPRLLIYSASSRATGIPDRFSGSGSGTDFTLTISRLEPEDFAVYFCQQYGGLTGWTFGQGTKVEIKGGSSGDIQMTQSPSSVSASVGDRVIITCRASQGISSWLAWYQQKPGKAPKVLIYDASSLQSGVPSRFSGSGYGTDFTLTISSLQPEDSATYYCQQAKSFPITFGQGTRLEIKGGGGSGGSGSGGGGSASGSGQVQLVESGGGVVQPGRSLRLSCAASGFTFSSYAFHWVRQAPGKGLEWVAVISYDGSNQYYADSVKGRFTISRDNSKNTLYLQMNSLRADDTAVYYCARDLAIAVAGTWHYYNGMDVWGQGTTVTVSSGGSSGQMQLVQSGPEVKKPGTSVKVSCKASGFTFTSSAVQWVRQRQRLEWIGWIVVGSGNTNYAQKFQERVTITRDMSTSTAYMELSSLRSEDTAVYYCAAPNCSNVVCYDGFDIWGQGTMVTVSSASGGSGDKTHTCPPCPAPELLGGPSVFLFPPKPKDTLMISRTPEVTCVVVDVSHEDPEVKFNWYVDGVEVHNAKTKPREEQYNSYVVSVLTVLHQDWLNGKEYKCKVSNKALPAPIEKTISKAKGQPREPQVCTLPPSRDELTKNQVSLSCAVKGFYPSDIAVEWESNGQPENNYKTTPPVLDSDGSFFLVSKLTVDKSRWQQGNVFSCSVLHEALHSHYTQKSLSLSPG,–,–,–,–,3.06,13.4,3.22,17.1
MX838 (other) chain 1: QTVVTQEPSFSVSPGGTVTLTCGLSSGSVSTAYFPSWYQQTPGQAPRTLIYGTNTRSSGVPDRFSGSILGNKAALTITGAQADDESDYYCVLYMGRGIVVFGGGTKLTVLGGSSGEIVLTQSPGTLSLSPGERATLSCRASQSVSSSYLAWYQQKPGQAPRLLIYSASSRATGIPDRFSGSGSGTDFTLTISRLEPEDFAVYFCQQYGGLTGWTFGQGTKVEIKGGGGSGGSGSGGGGSASGSGQMQLVQSGPEVKKPGTSVKVSCKASGFTFTSSAVQWVRQRQRLEWIGWIVVGSGNTNYAQKFQERVTITRDMSTSTAYMELSSLRSEDTAVYYCAAPNCSNVVCYDGFDIWGQGTMVTVSSGGSSGQVQLVESGGGVVQPGRSLRLSCAASGFTLSSYGMHWVRQAPGKGLEWVAVISYDGSNKYYVDSVKGRFTISRDNSKNTLYLQMNSLRAEDTAVYYCRWAYWELLPDYYYGMDVWGQGTTVTVSSASGGSGDKTHTCPPCPAPELLGGPSVFLFPPKPKDTLMISRTPEVTCVVVDVSHEDPEVKFNWYVDGVEVHNAKTKPREEQYNSYVVSVLTVLHQDWLNGKEYKCKVSNKALPAPIEKTISKAKGQPREPQVYTLPPCRDELTKNQVSLWCLVKGFYPSDIAVEWESNGQPENNYKTTPPVLDSDGSFFKKLTVDKSRWQQGNVFSCSVLHEALHSHYTQKSLSLSPG chain 2: DIQMTQSPSSVSASVGDRVIITCRASQGISSWLAWYQQKPGKAPKVLIYDASSLQSGVPSRFSGSGYGTDFTLTISSLQPEDSATYYCQQAKSFPITFGQGTRLEIKGGSSGEIVLTQSPGTLSLSPGERATLSCRASQSVSSSYLAWYQQKPGQAPRLLIYSASSRATGIPDRFSGSGSGTDFTLTISRLEPEDFAVYFCQQYGGLTGWTFGQGTKVEIKGGGGSGGSGSGGGGSASGSGQMQLVQSGPEVKKPGTSVKVSCKASGFTFTSSAVQWVRQRQRLEWIGWIVVGSGNTNYAQKFQERVTITRDMSTSTAYMELSSLRSEDTAVYYCAAPNCSNVVCYDGFDIWGQGTMVTVSSGGSSGQVQLVESGGGVVQPGRSLRLSCAASGFTFSSYAFHWVRQAPGKGLEWVAVISYDGSNQYYADSVKGRFTISRDNSKNTLYLQMNSLRADDTAVYYCARDLAIAVAGTWHYYNGMDVWGQGTTVTVSSASGGSGDKTHTCPPCPAPELLGGPSVFLFPPKPKDTLMISRTPEVTCVVVDVSHEDPEVKFNWYVDGVEVHNAKTKPREEQYNSYVVSVLTVLHQDWLNGKEYKCKVSNKALPAPIEKTISKAKGQPREPQVCTLPPSRDELTKNQVSLSCAVKGFYPSDIAVEWESNGQPENNYKTTPPVLDSDGSFFLVSKLTVDKSRWQQGNVFSCSVLHEALHSHYTQKSLSLSPG,–,–,–,–,6.01,18.4,3.82,23.8
